Target: HV62, synthetic peptide corresponding to residues 33 to 94 of human VAMP-2 (human) (UniProt P63027)

With “native TeNT (tetanus neurotoxin) (enzyme)” the Initial rate of cleavage of HV62 (nmol · min^-1mg^-1) was 20.3.

From patent publication US20080032931A1, “ACTIVATABLE CLOSTRIDIAL TOXINS” (published 2008)
